PubChem BioAssay AID624099 | ICCB-Longwood, 2012

- Aim: 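Human genes that papillomavirus E2 requires to repress the HPV18 LCR promoter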 (primary screen)
- System: human C33A cervical carcinoma cells (HPV-negative) stably expressing BPV1 E2 and an HPV18 LCR luciferase reporter
- Knock-down reagent: siRNA pool against human genes, 40 nM
- Duration: 72 h
- Measurement: 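Per-well luciferase luminescence, z-scored on each plate against the plate mean and SD with control wells left out, then averaged across three replicate plates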
- Reading the numbers: mean z-score and z-score: higher = stronger reporter signal, weaker E2 silencing
- Hit rule: 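Mean z ≥ 2 together with z ≥ 2 in two or more of the three replicates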
This is an unselected part of about 21,000 reagents. 497 of all reagents (2.4%) count as active. 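Higher z means weaker E2 silencing; only reporter increases were scored, and knock-downs that hurt cell survival may mask genuine repressor factors.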

After knock-down of KRTAP20-1 (keratin associated protein 20-1) the results were mean z-score 0.27; z-score, replicate A = 0.2; z-score, replicate B = 0.17; z-score, replicate C = 0.43; inactive.
With knock-down of VPS28 (VPS28 subunit of ESCRT-I) the results were mean z-score 0.41; z-score, replicate A = 0.03; z-score, replicate B = 0.94; z-score, replicate C = 0.28; inactive.
Against TMEM203 (transmembrane protein 203), the entry reads mean z-score -0.52; z-score, replicate A = -0.52; z-score, replicate B = -0.3; z-score, replicate C = -0.76; inactive.
After knock-down of CHID1 (chitinase domain containing 1), the record shows mean z-score -0.76; z-score, replicate A = -1; z-score, replicate B = -0.77; z-score, replicate C = -0.51; inactive.
Against OR13C5 (olfactory receptor family 13 subfamily C member 5), the values are mean z-score 0.55; z-score, replicate A = 0.78; z-score, replicate B = 0.49; z-score, replicate C = 0.38; inactive.
RRP12 (ribosomal RNA processing 12 homolog) showed mean z-score 0.08; z-score, replicate A = 0.31; z-score, replicate B = -0.27; z-score, replicate C = 0.19; inactive.
Knock-down of HCFC2 (host cell factor C2) gave: mean z-score -1.39; z-score, replicate A = -1.51; z-score, replicate B = -1.18; z-score, replicate C = -1.48; inactive.
For SP2 (Sp2 transcription factor) the deposit lists mean z-score -0.7; z-score, replicate A = -0.84; z-score, replicate B = -0.71; z-score, replicate C = -0.56; inactive.
Knock-down of CIT (citron rho-interacting serine/threonine kinase) resulted in: mean z-score 1.98; z-score, replicate A = 1.95; z-score, replicate B = 2.31; z-score, replicate C = 1.68; inactive.
For RAB5C (RAB5C, member RAS oncogene family) the deposit lists mean z-score -0.17; z-score, replicate A = -0.01; z-score, replicate B = -0.34; z-score, replicate C = -0.16; inactive.
With knock-down of FUOM (fucose mutarotase), the screen gave mean z-score -1.82; z-score, replicate A = -2.28; z-score, replicate B = -1.63; z-score, replicate C = -1.57; inactive.
TIAM1 (TIAM Rac1 associated GEF 1) gave mean z-score -0.41; z-score, replicate A = -0.62; z-score, replicate B = -0.32; z-score, replicate C = -0.3; inactive.
Against SHOC2 (SHOC2 leucine rich repeat scaffold protein), the entry reads mean z-score 0.37; z-score, replicate A = 0.23; z-score, replicate B = 0.52; z-score, replicate C = 0.37; inactive.
With knock-down of ACTR5 (actin related protein 5), the record shows mean z-score -0.95; z-score, replicate A = -1.11; z-score, replicate B = -0.82; z-score, replicate C = -0.92; inactive.
Against KCNMB4, the values are mean z-score -0.29; z-score, replicate A = -0.45; z-score, replicate B = 0.11; z-score, replicate C = -0.53; inactive.
TRMT112 (tRNA methyltransferase activator subunit 11-2) gave mean z-score -0.92; z-score, replicate A = -0.45; z-score, replicate B = -1.23; z-score, replicate C = -1.07; inactive.
After knock-down of ATP6V1C2 (ATPase H+ transporting V1 subunit C2), the record shows mean z-score -0.36; z-score, replicate A = -0.23; z-score, replicate B = -0.4; z-score, replicate C = -0.45; inactive.
NDC80 (NDC80 kinetochore complex component) gave mean z-score -1.19; z-score, replicate A = -1.3; z-score, replicate B = -1.08; z-score, replicate C = -1.19; inactive.
NEDD9 gave mean z-score -0.61; z-score, replicate A = -0.76; z-score, replicate B = -0.39; z-score, replicate C = -0.68; inactive.
LOC389660 (retired record) gave mean z-score -0.21; z-score, replicate A = -0.72; z-score, replicate B = 0.17; z-score, replicate C = -0.07; inactive.
IFT172 (intraflagellar transport 172) showed mean z-score -1.5; z-score, replicate A = -1.76; z-score, replicate B = -1.33; z-score, replicate C = -1.39; inactive.

An excerpt from above, limited to “z-score, replicate B”.
ACTR5 (actin related protein 5)	-0.82
KCNMB4	0.11
TRMT112 (tRNA methyltransferase activator subunit 11-2)	-1.23
